Data as given in PubChem BioAssay AID624099 (ICCB-Longwood, 2012)
Test: 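Knock-downs relieving repression by E2 of an HPV18 LCR luciferase reporter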 (primary screen). Cell system: human C33A cervical carcinoma cells (HPV-negative) stably expressing BPV1 E2 and an HPV18 LCR luciferase reporter. Reagent: siRNA pool against human genes, 40 nM. Timing: 72 h. Detection: 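HPV18 LCR reporter light per well, converted to plate-wise z-scores that exclude control wells, and averaged over triplicate plates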. Direction: mean z-score and z-score: higher = stronger reporter signal, weaker E2 silencing. Rule for the call: 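Mean z ≥ 2 together with z ≥ 2 in two or more of the three replicates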.
The deposit covers about 21,000 reagents; shown is a random part of them. Over the whole deposit, 497 (2.4%) are marked active. 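Higher z means weaker E2 silencing; only reporter increases were scored, and knock-downs that hurt cell survival may mask genuine repressor factors.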 Entries without a mark were called inactive. Reagents against one gene are numbered here.

gene | reagent | mean z-score | z-score, replicate A | z-score, replicate B | z-score, replicate C
COL13A1 (GeneID 1305) | 1 | -1.89 | -1.91 | -2.38 | -1.4
LINC02649 (GeneID 399715) | 1 | -0.45 | -0.29 | -0.35 | -0.7
SLC43A3 (GeneID 29015) | 1 | -0.73 | -0.62 | -0.64 | -0.92
SDC1 (GeneID 6382) | 1 | 0.06 | -0.53 | 0.2 | 0.51
KRT9 (GeneID 3857) | 1 | -0.28 | -0.59 | 0.14 | -0.39
SGO1 (GeneID 151648) | 1 | -1.87 | -1.78 | -1.98 | -1.85
SLC6A1 (GeneID 6529) | 1 | -0.06 | 0.2 | -0.29 | -0.07
RAB23 (GeneID 51715) | 1 | 0.15 | 0.16 | 0.35 | -0.06
CD3E (GeneID 916) | 1 | 0.44 | 0.22 | 0.61 | 0.48
PKM (GeneID 5315) | 1 | 3.01 (active) | 3.43 | 2.69 | 2.91
SEMA3B (GeneID 7869) | 1 | 0.13 | 0.23 | 0.05 | 0.12
ASAH2 (GeneID 56624) | 1 | -1.13 | -1.2 | -1.01 | -1.17
CCR6 (GeneID 1235) | 1 | 1.61 | 1.52 | 1.83 | 1.49
RPL26L1 (GeneID 51121) | 1 | -0.89 | -1.14 | -0.37 | -1.16
DUS4L (GeneID 11062) | 1 | 0.53 | 0.34 | 0.88 | 0.38
FAM90A1 (GeneID 55138) | 1 | 0.66 | 0.54 | 0.3 | 1.15
GLA (GeneID 2717) | 1 | 1.25 | 1.57 | 1.02 | 1.15
HS3ST3B1 (GeneID 9953) | 1 | 0.46 | 0.53 | 0.35 | 0.51
B3GALNT1 (GeneID 8706) | 1 | -0.56 | -0.41 | -0.5 | -0.77
OAS2 (GeneID 4939) | 1 | 0.78 | 1.25 | 0.49 | 0.6
DHODH (GeneID 1723) | 1 | -0.06 | 0.07 | 0.07 | -0.31
N4BP2 (GeneID 55728) | 1 | -0.19 | 0 | -0.41 | -0.16
TMEM204 (GeneID 79652) | 1 | 0 | 0.4 | -0.17 | -0.21
ZNF592 (GeneID 9640) | 1 | -1.63 | -1.82 | -1.51 | -1.56
AGGF1 (GeneID 55109) | 1 | 0.01 | 0.18 | -0.4 | 0.25
ACKR2 (GeneID 1238) | 1 | -0.11 | 0.15 | -0.17 | -0.32

The list goes on (8 carried over from the part before).
gene | reagent | mean z-score | z-score, replicate A | z-score, replicate B | z-score, replicate C
B3GALNT1 (GeneID 8706) | 1 | -0.56 | -0.41 | -0.5 | -0.77
OAS2 (GeneID 4939) | 1 | 0.78 | 1.25 | 0.49 | 0.6
DHODH (GeneID 1723) | 1 | -0.06 | 0.07 | 0.07 | -0.31
N4BP2 (GeneID 55728) | 1 | -0.19 | 0 | -0.41 | -0.16
TMEM204 (GeneID 79652) | 1 | 0 | 0.4 | -0.17 | -0.21
ZNF592 (GeneID 9640) | 1 | -1.63 | -1.82 | -1.51 | -1.56
AGGF1 (GeneID 55109) | 1 | 0.01 | 0.18 | -0.4 | 0.25
ACKR2 (GeneID 1238) | 1 | -0.11 | 0.15 | -0.17 | -0.32
CEP55 (GeneID 55165) | 1 | 0.71 | 0.64 | 0.92 | 0.58
C11orf52 (GeneID 91894) | 1 | -0.13 | -0.04 | -0.3 | -0.03
PEX1 (GeneID 5189) | 1 | -0.03 | 0.09 | 0.14 | -0.31
NCKAP5 (GeneID 344148) | 1 | 0.58 | 0.77 | 0.81 | 0.17
NCKAP5 (GeneID 344148) | 2 | -0.1 | -0.07 | -0.31 | 0.09
CRISPLD1 (GeneID 83690) | 1 | -0.42 | -0.4 | -0.73 | -0.12
RITA1 (GeneID 84934) | 1 | -0.2 | -0.19 | -0.14 | -0.27
ILF3 (GeneID 3609) | 1 | -1.54 | -1.51 | -1.61 | -1.5
ABHD14A (GeneID 25864) | 1 | -0.91 | -1.03 | -0.86 | -0.84
SLFN11 (GeneID 91607) | 1 | -0.26 | -0.39 | 0 | -0.39
LOC400748 (GeneID 400748) | 1 | -0.93 | -0.69 | -0.91 | -1.19
SLC49A3 (GeneID 84179) | 1 | -0.49 | -0.61 | -0.69 | -0.17
TUBA3C (GeneID 7278) | 1 | 0.65 | 0.52 | 0.69 | 0.73
LINC00467 (GeneID 84791) | 1 | 1.43 | 1.23 | 1.61 | 1.46
ORAI1 (GeneID 84876) | 1 | 1.3 | 1.51 | 1.02 | 1.36
TMEM105 (GeneID 284186) | 1 | 0.09 | 0.19 | 0.05 | 0.02
PAOX (GeneID 196743) | 1 | -1.26 | -1.29 | -1.06 | -1.43
RSU1 (GeneID 6251) | 1 | 0.57 | 0.41 | 0.44 | 0.85
TMEM132C (GeneID 92293) | 1 | -1.21 | -1.01 | -1.72 | -0.91
TAFA5-AS1 (GeneID 284933) | 1 | 0.21 | 0.22 | 0.18 | 0.23
GPRIN3 (GeneID 285513) | 1 | 0.45 | 0.39 | 0.54 | 0.41
DEPTOR (GeneID 64798) | 1 | -0.91 | -0.83 | -0.83 | -1.07
BCAP29 (GeneID 55973) | 1 | -0.66 | -0.68 | -0.71 | -0.6
BTN3A3 (GeneID 10384) | 1 | 0.46 | 0.39 | 0.23 | 0.75
LYN (GeneID 4067) | 1 | -1.78 | -1.76 | -2 | -1.58
ARHGAP6 (GeneID 395) | 1 | -1.18 | -1.16 | -1.26 | -1.11
TRAPPC2L (GeneID 51693) | 1 | -0.59 | -0.28 | -0.5 | -0.99
BCAS4 (GeneID 55653) | 1 | 0.25 | 0.47 | 0.36 | -0.09
MIRLET7BHG (GeneID 400931) | 1 | -0.11 | -0.13 | 0.36 | -0.57
TMEM237 (GeneID 65062) | 1 | 1.57 | 1.36 | 1.58 | 1.78
CFAP184 (GeneID 257236) | 1 | -0.25 | -0.34 | 0.02 | -0.42
